Data from EP3498273A1, “PHARMACEUTICAL COMPOSITION FOR MODULATING THE RESPONSE OF A GABA-A RECEPTOR” (Universität Wien, priority 2017, dated 2019).

By UniProt entry, the sequences of proteins in these tests, tags left out. Where a name states a change or a piece, a line headed by the entry shows the natural chain unless it says otherwise.
UniProt P14867: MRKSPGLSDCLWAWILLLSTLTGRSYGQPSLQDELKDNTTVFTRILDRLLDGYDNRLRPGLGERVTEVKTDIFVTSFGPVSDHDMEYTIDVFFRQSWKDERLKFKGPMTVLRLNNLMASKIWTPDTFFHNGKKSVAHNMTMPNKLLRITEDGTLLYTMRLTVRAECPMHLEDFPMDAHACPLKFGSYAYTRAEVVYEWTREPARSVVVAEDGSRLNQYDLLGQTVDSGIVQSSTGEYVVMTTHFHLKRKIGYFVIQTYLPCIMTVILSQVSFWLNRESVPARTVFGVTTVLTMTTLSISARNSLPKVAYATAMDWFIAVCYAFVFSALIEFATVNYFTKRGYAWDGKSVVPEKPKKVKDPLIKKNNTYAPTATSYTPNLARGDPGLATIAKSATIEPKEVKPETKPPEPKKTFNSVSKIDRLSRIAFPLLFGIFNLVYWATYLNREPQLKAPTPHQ
UniProt P28472: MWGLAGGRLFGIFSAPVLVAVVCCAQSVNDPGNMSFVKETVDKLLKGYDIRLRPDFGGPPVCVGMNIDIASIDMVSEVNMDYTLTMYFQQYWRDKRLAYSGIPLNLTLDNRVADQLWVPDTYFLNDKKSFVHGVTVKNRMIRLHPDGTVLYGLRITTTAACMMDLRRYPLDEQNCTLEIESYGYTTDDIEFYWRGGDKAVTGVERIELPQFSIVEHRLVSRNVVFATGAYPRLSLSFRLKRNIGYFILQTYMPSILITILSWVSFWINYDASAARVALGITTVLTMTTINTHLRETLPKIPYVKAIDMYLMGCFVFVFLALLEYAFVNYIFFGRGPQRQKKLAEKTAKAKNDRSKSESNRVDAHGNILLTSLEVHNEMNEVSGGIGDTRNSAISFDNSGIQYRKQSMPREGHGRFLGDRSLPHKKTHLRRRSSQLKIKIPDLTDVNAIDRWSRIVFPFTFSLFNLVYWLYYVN

Target: GABAA receptors composed of α1β3γ2S subunits (Homo sapiens, UniProt P14867+P28472)
Assay: Two-microelectrode voltage clamp: enhancement of GABA-induced chloride currents (IGABA) through receptors expressed in Xenopus laevis oocytes

CC(=C(C#N)C#N)c1ccc(Cl)cc1Cl
IGABA pot; % α1β3γ2s (30µM) (30 µM compound, co-applied with GABA EC3-7, mean ± SEM): 1488 ± 140% | IGABA pot; % α1β3γ2s (100µM) (100 µM compound, co-applied with GABA EC3-7, mean ± SEM): 1474 ± 153% | EC50 (Table 6, α1β3γ2s, unit inferred): 12.5 µM
